PubChem BioAssay AID504761, Drosophila RNAi Screening Center | 2011
In all, the deposit lists about 22,000 reagents; this is a random part of those with a known target gene and a result. Over the whole deposit, 116 (0.52%) were called active. 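Calls depend on retest data that are not deposited; infection was ranked per plate without normalising between plates; the unit of the infection score is not given.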 Unmarked entries are inactive. Names joined by + are all predicted targets of the reagent. Further read-outs or replicates are left out here. Not stated in the record: the amount of reagent, the time to read-out.

- Test: 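Insect host genes that dengue virus relies on to spread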 (primary screen)
- Cell system: D.Mel-2 cells from Drosophila
- Reagent: long dsRNA against Drosophila genes
- Conditions: infection with dengue virus type 2; dose and infection time not stated
- Measurement: 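Per well on two replicate plates, imaging gave the percent of cells positive for viral envelope protein, ranked by infection, and a nuclear count of cells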
- Direction: infection score: higher = more virus-infected cells
- Rule for the call: 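Low infection ranks in the two replicates (chance level up to 0.065) followed by a retest with a 1.5-fold or larger significant decrease, p below 0.05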
- Meaning of the calls: active = confirmed: knock-down lowers infection; inactive = not picked or not confirmed

{"target gene": "ssp (sunspot)", "dsRNA": "DRSC10252", "infection score, replicate 1": 16.1}
{"target gene": "sloth2 + sloth1", "dsRNA": "DRSC17922", "infection score, replicate 1": 3.83}
{"target gene": "sloth2 + sloth1", "dsRNA": "DRSC17923", "infection score, replicate 1": 5.39}
{"target gene": "CG7560", "dsRNA": "DRSC10879", "infection score, replicate 1": 0.86}
{"target gene": "ogre (optic ganglion reduced)", "dsRNA": "DRSC18809", "infection score, replicate 1": 2.87}
{"target gene": "ogre (optic ganglion reduced)", "dsRNA": "DRSC24730", "infection score, replicate 1": 16.9}
{"target gene": "CG9411", "dsRNA": "DRSC20184", "infection score, replicate 1": 4.57}
{"target gene": "CG9411", "dsRNA": "DRSC26840", "infection score, replicate 1": 1.44}
{"target gene": "CG4570", "dsRNA": "DRSC15602", "infection score, replicate 1": 9.18}
{"target gene": "MnM (myomesin and myosin binding protein)", "dsRNA": "DRSC08423", "infection score, replicate 1": 1.51}
{"target gene": "Rilpl (Rab interacting lysosomal protein like)", "dsRNA": "DRSC18494", "infection score, replicate 1": 2.27}
{"target gene": "Herc4 (HECT and RLD domain containing E3 ubiquitin ligase 4)", "dsRNA": "DRSC08631", "infection score, replicate 1": 0.8}
{"target gene": "CAH13 (Carbonic anhydrase 13)", "dsRNA": "DRSC06128", "infection score, replicate 1": 15.2}
{"target gene": "CAH13 (Carbonic anhydrase 13)", "dsRNA": "DRSC24093", "infection score, replicate 1": 15.2}
{"target gene": "Ldaf1 (Lipid droplet assembly factor 1)", "dsRNA": "DRSC17963", "infection score, replicate 1": 3.53}
{"target gene": "Ldaf1 (Lipid droplet assembly factor 1)", "dsRNA": "DRSC25860", "infection score, replicate 1": 3.63}
{"target gene": "CG10183", "dsRNA": "DRSC14203", "infection score, replicate 1": 5.84}
{"target gene": "CG10183", "dsRNA": "DRSC25343", "infection score, replicate 1": 2.68}
{"target gene": "Arp10 (Actin-related protein 10)", "dsRNA": "DRSC19448", "infection score, replicate 1": 24.3}
{"target gene": "Arp10 (Actin-related protein 10)", "dsRNA": "DRSC28715", "infection score, replicate 1": 10.1}
{"target gene": "CG7330", "dsRNA": "DRSC10813", "infection score, replicate 1": 6.39}
{"target gene": "CG7330", "dsRNA": "DRSC10814", "infection score, replicate 1": 6.1}
{"target gene": "rt (rotated abdomen)", "dsRNA": "DRSC11391", "infection score, replicate 1": 2.22}
{"target gene": "CG15818", "dsRNA": "DRSC02505", "infection score, replicate 1": 5.77}
{"target gene": "CG15818", "dsRNA": "DRSC28515", "infection score, replicate 1": 9.43}
{"target gene": "Dscam3 (Down syndrome cell adhesion molecule 3)", "dsRNA": "DRSC14525", "infection score, replicate 1": 3.15}
{"target gene": "Dscam3 (Down syndrome cell adhesion molecule 3)", "dsRNA": "DRSC16376", "infection score, replicate 1": 5.09}
